Pooled drug test results. Numbers come from NIAID ChemDB, via PubChem.

Common to all: tests on isolated targets; species: HIV-1; target: Reverse transcriptase

ICn is the concentration giving n% inhibition.

smiles | strain | read-out | read by | mutations | result
COc1cc(/C=C/C(=O)O)ccc1O | - | IC50 | - | - | >100 µM
CCN1c2ncccc2C(=O)N(C)c2ccc(-c3ccn(C)c3)nc21 | - | IC50 | nucleotide incorporation / radiometric | RT-Y188L | >1 µM
CCN1c2ncc(CCOc3ccc(-c4ccncc4)cc3C)cc2C(=O)N(C)c2cccnc21 | IIIB | IC50 | nucleotide incorporation / radiometric | RT-K103N Y181C | <0.05 µM
CC(C(=O)CN1CCN(c2ccc(F)cc2)CC1)N1C(=O)c2ccccc2C1=O | - | IC50 | nucleotide incorporation / radiometric | - | 35.2 µM
CC(C)=CCN1Cc2cccc3[nH]c(=S)n(c23)C[C@@H]1C | LAI | IC50 | radiometric | - | 2.1 µM
CCOP(=O)(Cc1ccccc1)OC1C=CC(n2ccc(=O)n(Cc3ccccc3)c2=O)C1 | - | Ki | RT activity | - | >100 µM
Cc1cc(/C=C/C#N)cc(C)c1Oc1ccnc(S(=O)(=O)CC(=O)Nc2ccc(Cl)cc2)n1 | - | IC50 | RT activity / fluorescence | - | 0.186 µM
CN1CCN(c2cc3c(cc2F)c(=O)c(C(=O)O)cn3-c2ccc3ccccc3c2)CC1.CS(=O)(=O)O | - | IC50 | ELISA | - | >1 µg/mL
CCN1c2ncc(CCOc3ccc(-c4nccn4C)cc3C)cc2C(=O)N(C)c2cccnc21 | IIIB | IC50 | nucleotide incorporation / radiometric | RT-K103N Y181C | 0.05–0.1 µM
C=CC(C)(C)n1cc(C2=C(O)C(=O)C(c3cn(C(C)(C)C=C)c4ccccc34)=C(O)C2=O)c2ccccc21 | - | IC50 | binding | - | 8.5 µM
O=C(O)CCc1ccc(O)cc1 | - | IC50 | - | - | >100 µM
CC1CN(c2nc3c(cc2F)c(=O)c(C(=O)O)cn3-c2ccc3ccccc3c2)CCN1.CS(=O)(=O)O | - | IC50 | ELISA | - | >1 µg/mL
C#CC(O)/C=C/C/C=C/C=C/C=C/CC#CC(O)C#CC/C=C/C=C/C=C/CC(O)C#C | - | IC50 | radiometric | - | 0.95 µM
CCOP(=O)(Cc1ccccc1)OC1C=CC(n2ccc(=O)[nH]c2=O)C1 | - | Ki | RT activity | - | >100 µM
CCc1cn([C@H]2CC[C@@H](COP(=O)(O)OP(=O)(O)OP(=O)(O)O)O2)c(=O)[nH]c1=O | LAV | IC50 | - | - | 0.116 µM
C/C1=C\C=C\C2(C)C=C(CO)C(C)CC23OC([O-])C(C3=O)C(O)/C=C/C2(C)C=C(C=O)C(C)CC23OC([O-])C(C3=O)C(O)/C(C)=C/C=C/C2C=C(CO)C(C)CC23OC([O-])C(C3=O)C(O)/C=C/C2(C)C=C(C=O)C(C)CC23OC([O-])C(C3=O)C1O | IIIB | IC50 | RT activity | - | 1.6 µg/mL
CC(=O)Oc1ccc(OC(C)C(C)=O)c2c1C(=O)c1ccccc1C2=O | - | IC50 | - | - | >100 µM
CS(=O)(=O)O.C[C@@H]1CN(c2cc3c(cc2F)c(=O)c(C(=O)O)cn3-c2cccc3ccccc23)C[C@H](C)N1 | - | IC50 | ELISA | - | ~1 µg/mL
Nc1ccn([C@@H]2CS[C@H](COP(=O)(O)OP(=O)(O)OP(=O)(O)O)O2)c(=O)n1 | - | Ki | - | - | 1 µM
Nc1nc2c(ncn2[C@H]2CC[C@@H](COP(=O)(O)OP(=O)(O)OP(=O)(O)O)O2)c(=O)[nH]1 | NL4-3 | IC50 | nucleotide incorporation / radiometric | - | 0.7 µM
Cc1cc(-c2ccc(C#N)cc2)cc(C)c1Oc1ccnc(S(=O)(=O)CC(=O)Nc2ccc(Cl)cc2)n1 | - | IC50 | RT activity / fluorescence | - | 0.078 µM
CCN1c2ncccc2C(=O)N(C)c2ccc(-c3cnn(C)c3)nc21 | - | IC50 | nucleotide incorporation / radiometric | RT-Y188L | >1 µM
CCCc1cc(=O)oc2c3c(c4c(c12)OC(C)(C)C=C4)O[C@H](C)C[C@@H]3O | WT | IC50 | nucleotide incorporation / radiometric | - | 2.88 µM
N[C@@H](Cc1ccc(OS(=O)(=O)[O-])cc1)C(=O)O.[Na+] | IIIB | IC50 | nucleotide incorporation / radiometric | - | 36 µg/mL
Cc1cn([C@H]2C[C@H](O)[C@](COP(=O)(O)OP(=O)(O)OP(=O)(O)O)(N=[N+]=[N-])O2)c(=O)[nH]c1=O | - | Ki | - | - | 0.0085 µM
CC(=O)OC1=C(C[C@]2(C)[C@@H](C)CC[C@]3(C)C(C)=CCC[C@@H]23)C(=O)C=CC1=O | - | IC50 | - | - | >50 µg/mL
CCN1c2ncc(CCOc3ccc(C(=O)Nc4cccn(CC(=O)O)c4=O)cc3C)cc2C(=O)N(C)c2cccnc21 | IIIB | IC50 | nucleotide incorporation / radiometric | - | <0.05 µM
CCC(=O)COc1ccc(O)c2c1C(=O)c1ccccc1C2=O | - | IC50 | - | - | >100 µM
CCN1c2ncccc2C(=O)N(C)c2ccc(-c3cnn(C(C)=O)c3)nc21 | - | IC50 | nucleotide incorporation / radiometric | RT-Y188L | <1 µM
CCN1c2ncc(CCOc3ccc(-c4cc(C(=O)O)ccc4C)cc3C)cc2C(=O)N(C)c2cccnc21 | IIIB | IC50 | nucleotide incorporation / radiometric | - | <0.05 µM
c1cnc2c(c1)CN(c1nn3c(C4CC4)nnc3c3ccccc13)CC2 | IIIB | IC50 | RT activity / fluorescence | - | 3 µM
CCC(=O)COc1ccc(OC(C)=O)c2c1C(=O)c1ccccc1C2=O | - | IC50 | - | - | >100 µM
CCN1c2ncccc2C(=O)N(C)c2ccc(-c3ccn[nH]3)nc21 | - | IC50 | nucleotide incorporation / radiometric | RT-Y188L | >1 µM
CCN1c2ncc(CCOc3ccc(-c4cc(CC(=O)O)ccc4C)cc3C)cc2C(=O)N(C)c2cccnc21 | IIIB | IC50 | nucleotide incorporation / radiometric | - | <0.05 µM
C=C1C(=O)O[C@@H]2C[C@@H]3[C@]4(CC[C@]5(C)[C@@H]([C@H](C)CCC=C(C)C)CC[C@@]35C)C[C@]4(CCC(=O)OC)[C@H]12 | - | IC50 | - | - | >9.9 µg/mL
CCN1c2ncc(CCOc3ccc(-c4cc[n+]([O-])c(C)c4)cc3C)cc2C(=O)N(C)c2cccnc21 | IIIB | IC50 | nucleotide incorporation / radiometric | RT-K103N Y181C | <0.05 µM
Nc1nc(=O)n([C@@H]2C=C[C@H](COP(=O)(O)OP(=O)(O)OP(=O)(O)O)O2)cc1F | - | IC50 | - | - | 0.2 µM
Cc1cc(C#N)cc(C)c1Oc1ccnc(S(=O)(=O)CC(=O)Nc2ccc(C#N)cc2)n1 | - | IC50 | RT activity / fluorescence | - | 0.065 µM
Cc1cn([C@H]2C[C@H](F)[C@@H](COP(=O)(O)OP(=O)(O)OP(=O)(O)O)O2)c(=O)[nH]c1=O | - | IC50 | - | - | 0.33 µM
O=c1[nH]c(CCc2ccccc2)cc(Nc2ccccc2)c1Br | - | IC50 | absorbance | - | 12.03 µM
Cc1cn([C@H]2CC[C@@H](COP(=O)(O)OP(=O)(O)OP(=O)(O)O)O2)c(=O)[nH]c1=O | - | IC50 | - | - | 0.0081 µM
CCN1c2ncccc2C(=O)N(C)c2ccc(-c3cnn(CC)c3)nc21 | WT | IC50 | nucleotide incorporation / radiometric | - | <1 µM
c1ccc2c(c1)CCN(c1nn3c(-c4cscn4)nnc3c3ccccc13)C2 | 98US_MSC5016 | IC90 | RT activity / fluorescence | - | 2.92 µM
CC(C(=O)CN1CCN(c2ccccc2Cl)CC1)N1C(=O)c2ccccc2C1=O | - | IC50 | nucleotide incorporation / radiometric | - | 126.8 µM
O=c1ccn(C2C=CC(OP(=O)(Cc3ccccc3)OCc3ccccc3)C2)c(=O)[nH]1 | - | Ki | RT activity | - | >100 µM
COc1cc2oc(-c3cc(O)c(OC)c(O)c3)c(OC)c(=O)c2c(O)c1OC | - | IC50 | - | - | >16.2 µg/mL
CCN1c2ncc(CCOc3ccc(-c4cccc(C(C)C(=O)O)c4)cc3C)cc2C(=O)N(C)c2cccnc21 | IIIB | IC50 | nucleotide incorporation / radiometric | - | <0.05 µM
CC1=CCC[C@H]2[C@](C)(Cc3c(O)ccc(O)c3O)[C@@H](C)CC[C@]12C | - | IC50 | - | - | 14.5 µg/mL
COc1c(O)cc2oc(-c3ccc(O)cc3)cc(=O)c2c1O | - | IC50 | - | - | <57.9 µg/mL
CN1CCN(c2nc3c(cc2F)c(=O)c(C(=O)O)cn3-c2ccc3ccccc3c2)CC1.CS(=O)(=O)O | - | IC50 | ELISA | - | >1 µg/mL
CC(C(=O)CN1CCN(c2cccc(Cl)c2)CC1)N1C(=O)c2ccccc2C1=O | - | IC50 | nucleotide incorporation / radiometric | - | 43.77 µM
CCc1cc(NCc2nc3c(C)ccc(C)c3o2)c(=O)[nH]c1C | - | IC50 | nucleotide incorporation | - | 0.047 µM
CCN1C(=O)c2cccnc2N(C)c2nc(-c3ccc[nH]3)ccc21 | WT | IC50 | nucleotide incorporation / radiometric | - | <1 µM
CCN1c2ncc(CCOc3ccc(-c4ccc(C(=O)O)c(C)c4)cc3C)cc2C(=O)N(C)c2cccnc21 | IIIB | IC50 | nucleotide incorporation / radiometric | RT-K103N Y181C | <0.05 µM
CC(C(=O)CN1CCN(c2ccc([N+](=O)[O-])cc2)CC1)N1C(=O)c2ccccc2C1=O | - | IC50 | nucleotide incorporation / radiometric | - | 29.8 µM
C=C(C)C1CC[C@@H]2CC[C@]3(C)C(CCC4[C@@]5(C)CC[C@H](O)C(C)(C)C5CC[C@]43C)C12 | - | IC50 | RT activity | - | 67.2 µg/mL
CCN1c2ncccc2C(=O)N(C)c2ccc(-c3c[nH]c(C(C)=O)c3)nc21 | WT | IC50 | nucleotide incorporation / radiometric | - | <1 µM

For reference, 5 entries again:

smiles	strain	read-out	read by	mutations	result
C=C(C)C1CC[C@@H]2CC[C@]3(C)C(CCC4[C@@]5(C)CC[C@H](O)C(C)(C)C5CC[C@]43C)C12	-	IC50	RT activity	-	67.2 µg/mL
CCN1c2ncc(CCOc3ccc(-c4cc(C(=O)O)ccc4C)cc3C)cc2C(=O)N(C)c2cccnc21	IIIB	IC50	nucleotide incorporation / radiometric	-	<0.05 µM
CC(=O)Oc1ccc(OC(C)C(C)=O)c2c1C(=O)c1ccccc1C2=O	-	IC50	-	-	>100 µM
CCN1c2ncccc2C(=O)N(C)c2ccc(-c3cnn(C)c3)nc21	-	IC50	nucleotide incorporation / radiometric	RT-Y188L	>1 µM
Cc1cc(-c2ccc(C#N)cc2)cc(C)c1Oc1ccnc(S(=O)(=O)CC(=O)Nc2ccc(Cl)cc2)n1	-	IC50	RT activity / fluorescence	-	0.078 µM

Blank or dashed fields: not listed here. a–b is a range or a potency band. Conditions beyond the fields shown may differ between rows.